From US8664201B2 (priority 2008, dated 2014)

Assays:
B16 Melanoma = assay: s.c. B16 melanoma; format: in vivo, mice
Lewis Lung Carcinoma = assay: Lewis lung carcinoma, s.c. implant, IP treatment; format: in vivo, mice
[1] = dosage 30 (mg mg^-1), Day 2 Q5 min × 7
[2] = dosage 200 (mg mg^-1), Day 2 single dose
[3] = 30 mg/kg/dose IP, Day 2 Q5 min × 7
[4] = 200 mg/kg/dose IP, Day 2 single dose

NP(=O)(O)N(CCCl)CCCl
% ILS (B16 Melanoma; [1]): 17%
T-C (B16 Melanoma; [1]): 6.1 days
% ILS (B16 Melanoma; [2]): 15%
T-C (B16 Melanoma; [2]): 4.9 days
% ILS (Lewis Lung Carcinoma; [3]): 17%
Log kill total (Lewis Lung Carcinoma; [3]): 1.5
T-C (tumor growth delay) (Lewis Lung Carcinoma; [3]): 6.1 days
% ILS (Lewis Lung Carcinoma; [4]): 15%
Log kill total (Lewis Lung Carcinoma; [4]): 1.2
T-C (tumor growth delay) (Lewis Lung Carcinoma; [4]): 4.9 days
